Sequences of proteins named here, by UniProt entry; tags and fusion partners are left off. Residues count along the entry.
UniProt P02768, 25-609: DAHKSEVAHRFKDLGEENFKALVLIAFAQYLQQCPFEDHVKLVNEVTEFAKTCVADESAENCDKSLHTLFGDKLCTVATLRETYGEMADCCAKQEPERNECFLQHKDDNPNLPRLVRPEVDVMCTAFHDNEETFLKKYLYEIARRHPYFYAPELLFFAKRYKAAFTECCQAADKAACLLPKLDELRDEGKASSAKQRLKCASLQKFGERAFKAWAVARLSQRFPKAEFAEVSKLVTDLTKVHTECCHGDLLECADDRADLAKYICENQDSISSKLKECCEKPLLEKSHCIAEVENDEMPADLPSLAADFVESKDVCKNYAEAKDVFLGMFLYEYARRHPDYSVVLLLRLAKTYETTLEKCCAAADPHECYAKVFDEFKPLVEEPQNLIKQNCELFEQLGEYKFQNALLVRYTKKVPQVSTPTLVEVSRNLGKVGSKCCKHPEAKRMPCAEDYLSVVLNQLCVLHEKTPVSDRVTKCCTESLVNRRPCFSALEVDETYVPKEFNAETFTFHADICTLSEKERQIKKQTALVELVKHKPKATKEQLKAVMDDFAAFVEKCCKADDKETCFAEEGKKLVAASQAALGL

According to patent US20220018852A1, “METHODS AND KITS FOR DETECTING LIVER DYSFUNCTION IN A SUBJECT” (priority 2018, published 2022):

Experiments:
HSA [1] = target: T1, HSA (Homo sapiens, UniProt P02768); assay: SEB test, development cohort: 45 cirrhotic vs 45 control patients; assay type: binding
HSA [2] = target: T1, HSA; assay: SEB test, discovery cohort: cirrhotic patients vs patients with no liver dysfunction

## O.O.O.[Cl][Au]([Cl])[Cl] [Au, gold(III) chloride trihydrate]
HSA [1]
  specificity (Sp): 98%
HSA [2]
  Ratio Au/HSA, reference value: 10
  sensitivity of discrimination of cirrhotic from control patients: 100%
  specificity of discrimination of cirrhotic from control patients: 100%
